Test results reported in patent US6608027B1, “Macrocyclic peptides active against the hepatitis C virus” (Boehringer Ingelheim (Canada) Ltd, priority 1999, dated 2003).

Sequences of proteins named here, by UniProt entry; tags and fusion partners are left off. Residues count along the entry.
UniProt P26663, 1027-1657 limits assumed: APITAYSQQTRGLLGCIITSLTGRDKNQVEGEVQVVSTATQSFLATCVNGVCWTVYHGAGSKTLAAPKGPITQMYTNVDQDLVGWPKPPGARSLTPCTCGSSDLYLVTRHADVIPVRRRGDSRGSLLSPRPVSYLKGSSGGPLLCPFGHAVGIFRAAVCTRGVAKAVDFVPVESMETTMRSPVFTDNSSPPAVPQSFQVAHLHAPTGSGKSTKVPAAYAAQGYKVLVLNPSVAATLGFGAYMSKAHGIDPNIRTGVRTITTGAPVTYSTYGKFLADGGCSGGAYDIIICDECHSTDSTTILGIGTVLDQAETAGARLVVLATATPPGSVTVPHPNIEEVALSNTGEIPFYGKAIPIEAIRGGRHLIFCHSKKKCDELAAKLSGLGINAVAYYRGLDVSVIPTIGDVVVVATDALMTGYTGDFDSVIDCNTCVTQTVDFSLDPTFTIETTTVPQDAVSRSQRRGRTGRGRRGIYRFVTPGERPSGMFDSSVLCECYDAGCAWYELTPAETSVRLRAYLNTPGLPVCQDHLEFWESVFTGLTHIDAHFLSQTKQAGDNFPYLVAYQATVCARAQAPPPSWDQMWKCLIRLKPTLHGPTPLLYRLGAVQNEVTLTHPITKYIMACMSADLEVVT
UniProt P26663, 1658-1711 partner limits assumed: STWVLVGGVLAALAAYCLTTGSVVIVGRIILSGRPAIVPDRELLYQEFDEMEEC

target: NS3 protease (Hepatitis C virus genotype 1b, UniProt P26663); assay: NS3 protease cell-based assay (SEAP reporter, Huh-7 cells); parameters: species or system HCV; settings: read-out: cell. act. (EC50 code), SEAP activity, 24-hour incubation
From the text: This assay is done with Huh-7 cells, a human cell line derived from a hepatoma, co-transfected with 2 DNA constructs: one (called NS3) expressing part of the HCV non-structural polyprotein fused to the tTA protein through an NS5A-NS5B cleavage site in the following order: NS3-NS4A-NS4B-NS5A-(NS5B)tTA where (NS5B) represents the 6 first amino acids of NS5
B. This polyprotein is expressed under the control of the CMV promoter, the other (called SEAP) expressing the reporter protein, secreted alkaline phosphatase (SEAP), under the regulation of a tTA-responsive promoter. The first construct leads to the expression of a polyprotein from which the different mature proteins are released through cleavage by the NS3 protease. It is believed that the mature viral proteins forms a complex at the membrane of the endoplasmic reticulum. tTA is a fusion protein, described by Gossen and Bujard (Proc. Natl. Acad. Sci. USA 89 (1992): 5547-5551), which contains a DNA-binding domain and a transcriptional activator. Release of the tTA protein requires an NS3-dependent cleavage at the NS5A-NS5B cleavage site between NS5A and itself. This last cleavage allows tTA to migrate to the nucleus and transactivate the SEAP gene. Therefore, reduction of NS3 proteolytic activity leads to confinement of tTA to the cytoplasm and concomitant decrease in SEAP activity.
To control for cellular activities other than inhibition of NS3 protease which are due to the compound, a parallel co-transfection is done with a construct expressing tTA alone and the same reporter construct such that SEAP activity is independent of the NS3 protease.
Protocol of the assay: Huh-7 cells, grown in CHO-SFMII (Life Technologies)+10% FCS (fetal calf serum) were co-transfected with the two DNA constructs in the following proportions: 7 μg NS3+500 ng SEAP+[…] FuGENE (Boehringer Mannheim) per 4×10^6 Huh-7 cells. After 5 hours at 37° C., the cells were washed, trypsinized and plated (at 80 000 cells/well) in 96-well plates containing a range of concentrations of the compounds to be tested. After a 24-hour incubation period, the SEAP activity in the medium was measured with the Phospha-Light kit (Tropix).
Analysis of the percent inhibition of SEAP activity with respect to compound concentration was performed with the SAS software to obtain the EC50.

`COc1ccc2c(O[C@@H]3C[C@H]4C(=O)N[C@]5(C(=O)O)C[C@H]5/C=C\CCCCC[C@H](NC(=O)OC5CCCC5)C(=O)N4C3)cc(-c3csc(N)n3)nc2c1` and `COc1ccc2c(O[C@@H]3C[C@H]4C(=O)N[C@]5(C(=O)O)C[C@H]5/C=C\CCCCC[C@H](NC(=O)OC5CCCC5)C(=O)N4C3)cc(-c3csc(NC(C)=O)n3)nc2c1` cannot be ordered by EC50: under 1 µM for the first, under 1 µM for the second.

`CCNc1nc(-c2cc(O[C@@H]3C[C@H]4C(=O)N[C@]5(C(=O)O)C[C@H]5CCCCCCC[C@H](NC(=O)OCC(C)C)C(=O)N4C3)c3ccc(OC)cc3n2)cs1` and `CCNc1nc(-c2cc(O[C@@H]3C[C@H]4C(=O)N[C@]5(C(=O)O)C[C@H]5CCCCCCC[C@H](NC(=O)OC5CCC5)C(=O)N4C3)c3ccc(OC)cc3n2)cs1` cannot be ordered by EC50: under 1 µM for the first, under 1 µM for the second.

`CNC(=O)Nc1nc(-c2cc(O[C@@H]3C[C@H]4C(=O)N[C@]5(C(=O)O)C[C@H]5CCCCCCC[C@H](NC(=O)OC(C)(C)C)C(=O)N4C3)c3ccc(OC)cc3n2)cs1` and `COc1ccc2c(O[C@@H]3C[C@H]4C(=O)N[C@]5(C(=O)O)C[C@H]5CCCCCCC[C@H](NC(=O)OC(C)(C)C)C(=O)N4C3)cc(-c3csc(NC(C)=O)n3)nc2c1` cannot be ordered by EC50: under 1 µM for the first, under 1 µM for the second.

`COc1ccc2c(O[C@@H]3C[C@H]4C(=O)N[C@]5(C(=O)O)C[C@H]5CCCCCCC[C@H](NC(=O)OC5CCC5)C(=O)N4C3)cc(-n3cccn3)nc2c1` and `COc1ccc2c(O[C@@H]3C[C@H]4C(=O)N[C@]5(C(=O)O)C[C@H]5CCCCCCC[C@H](NC(=O)OC5CCCC5)C(=O)N4C3)cc(-n3cccn3)nc2c1` cannot be ordered by EC50: under 1 µM for the first, under 1 µM for the second.

`CCOc1cc(OC2CC3C(=O)NC4(C(=O)O)CC4CCCCCCCC(NC(=O)OC4CCCC4)C(=O)N3C2)c2ccc(OC)cc2n1` (stereo not shown) and `CCOc1cc(O[C@@H]2C[C@H]3C(=O)N[C@]4(C(=O)O)C[C@H]4CCCC[C@@H](C)CC[C@H](NC(=O)OC4CCCC4)C(=O)N3C2)c2ccc(OC)cc2n1` cannot be ordered by EC50: under 1 µM for the first, under 1 µM for the second.

`COc1ccc2c(O[C@@H]3C[C@H]4C(=O)N[C@]5(C(=O)O)C[C@H]5CCCCCCC[C@H](NC(=O)OC5CCC5)C(=O)N4C3)cc(-c3csc(NC(C)=O)n3)nc2c1` and `CNc1nc(-c2cc(O[C@@H]3C[C@H]4C(=O)N[C@]5(C(=O)O)C[C@H]5CCCCCCC[C@H](NC(=O)OC5CCCC5)C(=O)N4C3)c3ccc(OC)cc3n2)cs1` cannot be ordered by EC50: under 1 µM for the first, under 1 µM for the second.

`CCCC(=O)N[C@H]1CCCCC/C=C\[C@@H]2C[C@@]2(C(=O)O)NC(=O)[C@@H]2C[C@@H](Oc3cc(OCC)nc4cc(OC)ccc34)CN2C1=O` and `CCOc1cc(O[C@@H]2C[C@H]3C(=O)N[C@]4(C(=O)O)C[C@H]4/C=C\CCCCC[C@H](NC(=O)OC(C)C)C(=O)N3C2)c2ccc(OC)cc2n1` cannot be ordered by EC50: over 1 µM for the first, over 1 µM for the second.

`COc1ccc2c(O[C@@H]3C[C@H]4C(=O)N[C@]5(C(=O)O)C[C@H]5/C=C\CCCCC[C@H](NC(=O)OC5CCCC5)C(=O)N4C3)cc(-n3cccc3)nc2c1` and `COc1ccc2c(O[C@@H]3C[C@H]4C(=O)N[C@]5(C(=O)O)CC5/C=C\CCCCC[C@H](NC(=O)OC5CCCC5)C(=O)N4C3)cc(-n3cccn3)nc2c1` (stereo partly shown) cannot be ordered by EC50: under 1 µM for the first, under 1 µM for the second.

`CCOc1cc(O[C@@H]2C[C@H]3C(=O)N[C@]4(C(=O)O)C[C@H]4/C=C\CC[C@@H](C)CC[C@H](NC(=O)OC4CCCC4)C(=O)N3C2)c2ccc(OC)cc2n1` and `CCOc1cc(O[C@@H]2C[C@H]3C(=O)N[C@]4(C(=O)O)C[C@H]4/C=C\CCCCC[C@H](NC(=O)OC4CCCC4)C(=O)N3C2)c2ccc(OC)cc2n1` cannot be ordered by EC50: under 1 µM for the first, under 1 µM for the second.

`COc1ccc2c(O[C@@H]3C[C@H]4C(=O)N[C@]5(C(=O)O)C[C@H]5/C=C\CCCCC[C@H](NC(=O)N[C@H](C)C(C)(C)C)C(=O)N4C3)cc(-c3csc(NC(C)=O)n3)nc2c1` and `CCNc1nc(-c2cc(O[C@@H]3C[C@H]4C(=O)N[C@]5(C(=O)O)C[C@H]5/C=C\CCCCC[C@H](NC(=O)N[C@H](C)C(C)(C)C)C(=O)N4C3)c3ccc(OC)cc3n2)cs1` cannot be ordered by EC50: under 1 µM for the first, under 1 µM for the second.

`COc1ccc2c(O[C@@H]3C[C@H]4C(=O)N[C@]5(C(=O)O)C[C@H]5/C=C\CCCCC[C@H](NC(=O)OC5CCCC5)C(=O)N4C3)cc(-n3ccc(C)n3)nc2c1` and `COc1ccc2c(O[C@@H]3C[C@H]4C(=O)N[C@]5(C(=O)O)C[C@H]5/C=C\CCCCC[C@H](NC(=O)OC5CCCC5)C(=O)N4C3)cc(-c3cccc(C)n3)nc2c1` cannot be ordered by EC50: under 1 µM for the first, under 1 µM for the second.

`COc1ccc2c(O[C@@H]3C[C@H]4C(=O)N[C@]5(C(=O)O)C[C@H]5CCCCCCC[C@H](NC(=O)OC(C)(C)C)C(=O)N4C3)cc(-c3cccc(C)n3)nc2c1` and `COc1ccc2c(O[C@@H]3C[C@H]4C(=O)N[C@]5(C(=O)O)C[C@H]5CCCCCCC[C@H](NC(=O)OC(C)(C)C)C(=O)N4C3)cc(-c3ccccn3)nc2c1` cannot be ordered by EC50: under 1 µM for the first, under 1 µM for the second.

`COc1ccc2c(O[C@@H]3C[C@H]4C(=O)N[C@]5(C(=O)O)C[C@H]5CCCCCCC[C@H](NC(=O)OC5CCCC5)C(=O)N4C3)cc(-c3nccs3)nc2c1` and `COc1ccc2c(O[C@@H]3C[C@H]4C(=O)N[C@]5(C(=O)O)C[C@H]5CCCCCCC[C@H](NC(=O)OC5CCC5)C(=O)N4C3)cc(-c3nccs3)nc2c1` cannot be ordered by EC50: under 1 µM for the first, under 1 µM for the second.

`COc1ccc2c(O[C@@H]3C[C@H]4C(=O)N[C@]5(C(=O)O)C[C@H]5CCCCCCC[C@H](NC(=O)OC(C)(C)C)C(=O)N4C3)cc(-c3csc(C(C)C)n3)nc2c1` and `COc1ccc2c(O[C@@H]3C[C@H]4C(=O)N[C@]5(C(=O)O)C[C@H]5CCCCCCC[C@H](NC(=O)OC(C)(C)C)C(=O)N4C3)cc(-c3csc(NC=O)n3)nc2c1` cannot be ordered by EC50: under 1 µM for the first, under 1 µM for the second.

`COc1ccc2c(O[C@@H]3C[C@H]4C(=O)N[C@]5(C(=O)O)C[C@H]5/C=C\CCCCC[C@H](NC(=O)OC5CCCC5)C(=O)N4C3)cc(-c3nc(C(C)C)cs3)nc2c1` and `COc1ccc2c(OC3CC4C(=O)NC5(C(=O)O)CC5C=CCCCCCC(NC(=O)OC5CCCC5)C(=O)N4C3)cc(-c3nccs3)nc2c1` (stereo not shown) cannot be ordered by EC50: under 1 µM for the first, under 1 µM for the second.

Going from `CCOc1cc(O[C@@H]2C[C@H]3C(=O)N[C@]4(C(=O)O)C[C@H]4/C=C\CCCCC[C@H](NC(=O)C4C(C)(C)C4(C)C)C(=O)N3C2)c2ccc(OC)cc2n1` to `CCOc1cc(O[C@@H]2C[C@H]3C(=O)N[C@]4(C(=O)O)C[C@H]4/C=C\CCCCC[C@H](NC(=O)C4CCCC4)C(=O)N3C2)c2ccc(OC)cc2n1`, the EC50 rises from under 1 µM to over 1 µM. The first is the more potent here.

`CCOc1cc(O[C@@H]2C[C@H]3C(=O)N[C@]4(C(=O)O)C[C@H]4CCCCCCC[C@H](NC(=O)OC(C)(C)C)C(=O)N3C2)c2ccc(OC)cc2n1` and `COc1ccc2c(O[C@@H]3C[C@H]4C(=O)N[C@]5(C(=O)O)C[C@H]5CCCCCCC[C@H](NC(=O)OC(C)(C)C)C(=O)N4C3)cc(-c3nccs3)nc2c1` cannot be ordered by EC50: under 1 µM for the first, under 1 µM for the second.

`COC(=O)Nc1nc(-c2cc(O[C@@H]3C[C@H]4C(=O)N[C@]5(C(=O)O)C[C@H]5CCCCCCC[C@H](NC(=O)OC(C)(C)C)C(=O)N4C3)c3ccc(OC)cc3n2)cs1` and `COc1ccc2c(O[C@@H]3C[C@H]4C(=O)N[C@]5(C(=O)O)C[C@H]5CCCCCCC[C@H](NC(=O)OC(C)(C)C)C(=O)N4C3)cc(-n3cccc3)nc2c1` cannot be ordered by EC50: under 1 µM for the first, under 1 µM for the second.

`COc1ccc2c(O[C@@H]3C[C@H]4C(=O)N[C@]5(C(=O)O)C[C@H]5CCCC[C@@H](C)CC[C@H](NC(=O)OC(C)(C)C)C(=O)N4C3)cc(-c3ccccc3)nc2c1` and `COc1ccc2c(O[C@@H]3C[C@H]4C(=O)N[C@]5(C(=O)O)C[C@H]5CCCC[C@H](C)CC[C@H](NC(=O)OC(C)(C)C)C(=O)N4C3)cc(-c3ccccc3)nc2c1` cannot be ordered by EC50: under 1 µM for the first, under 1 µM for the second.

`CCNc1nc(-c2cc(O[C@@H]3C[C@H]4C(=O)N[C@]5(C(=O)O)C[C@H]5/C=C\CCCCC[C@H](NC(=O)OC5CCC5)C(=O)N4C3)c3ccc(OC)cc3n2)cs1` and `COc1ccc2c(OC3CC4C(=O)NC5(C(=O)O)CC5C=CCCCCCC(NC(=O)OC5CCC5)C(=O)N4C3)cc(-c3csc(NC(C)=O)n3)nc2c1` (stereo not shown) cannot be ordered by EC50: under 1 µM for the first, under 1 µM for the second.
